Pooled drug test results. Numbers come from NIAID ChemDB, via PubChem.

Common to all: growth or infection tests; species: Hepatitis C virus; read by: luciferase; read-out: EC50

ECn: concentration that inhibits the pathogen or its effect by n%. Blank or dashed fields: not listed here. Lines come from different laboratories, so protocols vary.

{"compound": "COc1nc(N)nc2c1ncn2[C@@H]1O[C@H](COP(=O)(N[C@@H](C)C(=O)OCC(C)(C)C)Oc2cccc3ccccc23)[C@@H](O)[C@@]1(C)O", "cells": "Huh7", "strain": "1b", "setting": "24 h", "value": "0.01 µM"}
{"compound": "Cc1ccc(S(=O)(=O)/N=C2\\NC(=O)/C(=C/c3cccnc3)S2)cc1", "cells": "Huh 5-2", "strain": "1b", "value": "16.63 µM"}
{"compound": "Cc1[nH]c(NC(=O)C(C)c2ccccc2)nc1-c1ccc(Cl)cc1", "cells": "Huh7", "strain": "1a", "value": ">10 µM"}
{"compound": "CNC(=O)c1c(-c2ccc(F)cc2)oc2cc(N(Cc3ccc(B(O)O)c(F)c3)S(C)(=O)=O)c(C3CC3)cc12", "cells": "Huh7.5", "strain": "C316N genotype 1b", "value": "0.0019 µM"}
{"compound": "C[C@@]1(O)[C@H](O)[C@@H](CO)O[C@H]1n1cnc2c(N)ncnc21", "cells": "Huh 5-2", "strain": "genotype 1", "value": "0.3 µM"}
{"compound": "CC(C)CC[C@@]1(C)C(=O)C(C2=NS(=O)(=O)c3cc(NS(C)(=O)=O)ccc3N2)=C(O)c2ccccc21", "cells": "Huh7", "strain": "5a", "value": "0.7469 µM"}
{"compound": "Nc1ccn([C@@H]2C[C@H](CO)[C@@H](CO)C23CC3)c(=O)n1", "cells": "Huh7", "value": ">50 µM"}
{"compound": "COC(=O)N[C@H](C(=O)N1CCCC1c1ncc(-c2ccc(-c3ccc(-c4cnc([C@@H]5CC(C)CN5C(=O)[C@@H](NC(=O)CO)C(C)C)[nH]4)cc3)cc2)[nH]1)C(C)C", "cells": "Lunet", "strain": "1a", "value": "0.0000251 µM"}
{"compound": "Cc1cc(-c2nnc(N[C@@H]3CCC[C@H](O)C3)o2)nc2c(C(C)(C)C)cc(OCC(F)(F)F)cc12", "strain": "WT 1b", "value": "0.00032 µM"}
{"compound": "COc1ccc(-c2nc(NC(=O)C(C)c3ccccc3)[nH]c2C)cc1S(C)(=O)=O", "cells": "Huh7", "strain": "1b", "value": "0.132 µM"}
{"compound": "Cc1cc(-c2nnc(N[C@@H]3CCC[C@H](O)C3)o2)nc2c(C(C)(C)C)cc(NCC(F)(F)F)cc12", "cells": "Huh7", "strain": "2a - JFH", "value": "0.003 µM"}
{"compound": "Nc1ccn([C@@H]2C[C@H](CO)[C@@H](O)C23CC3)c(=O)n1", "cells": "Huh7", "value": "14.4 µM"}
{"compound": "CNc1ncnc2c1ncn2[C@@H]1O[C@H](CO)[C@](O)(CF)[C@H]1O", "cells": "Huh 5-2", "strain": "genotype 1", "value": ">100 µM"}
{"compound": "CCCCn1c(=O)c2cc(OC)ccc2c2cc(C(O)(C(F)(F)F)C(F)(F)F)c3c(c21)OCO3", "cells": "LucNeo2 cells", "strain": "1b", "value": "0.063 µM"}
{"compound": "Cc1ccc(S(=O)(=O)/N=C2\\NC(=O)/C(=C/c3ccccc3Cl)S2)cc1", "cells": "Huh 5-2", "strain": "1b", "value": "44.02 µM"}
{"compound": "O=c1ccoc2cc(-c3ccccc3)c(OCc3cccc(Cl)c3)c(O)c12", "cells": "Huh 5-2", "strain": "genotype 1", "value": "22 µM"}
{"compound": "Nc1ncnc2c1ncn2[C@@H]1O[C@H](CO)[C@@H](O)[C@H]1CO", "cells": "Huh7", "strain": "1a", "value": ">88 µM"}
{"compound": "COc1ccc(-c2nc(NC(=O)[C@@H](C)c3ccc(Cl)cc3)[nH]c2C)cc1S(=O)(=O)CCO", "cells": "Huh7", "strain": "JFH-1", "value": "0.184 µM"}
{"compound": "NS(=O)(=O)c1cc(CNc2nc(NCC(F)(F)F)c3nc(-c4ccc(NC(=O)C5(C(F)(F)F)CC5)nc4)ccc3n2)cc(C(F)(F)F)c1", "strain": "1b", "value": "0.006 µM"}
{"compound": "OC[C@H]1O[C@@H](n2cnc3cncnc32)[C@H](O)[C@@]1(O)CF", "cells": "Huh 5-2", "strain": "genotype 1", "value": ">100 µM"}
{"compound": "O=C1N[C@H]2C(=O)N[C@H]3C(=O)N[C@H](C(=O)N[C@H](C(=O)O)c4cc(O)cc(O)c4-c4cc3ccc4O)[C@H](O)c3ccc(c(Cl)c3)Oc3cc2cc(c3O)Oc2ccc(cc2Cl)C[C@H]2NC(=O)[C@H](Nc3ccc(-c4ccccc4)cc3)c3ccc(O)c(c3)Oc3cc(O)cc(c3)[C@@H]1NC2=O", "strain": "Huh 9-13", "value": "15 µM"}
{"compound": "O=C(c1ccc2[nH]ccc2c1)N1CCC2(CCCN(c3ncc(-c4ccccc4)c(-c4ccc(Cl)cc4)n3)C2)CC1", "cells": "Huh7", "strain": "H77", "setting": "genotype 1a", "value": "0.782 µM"}
{"compound": "O=c1ccoc2cc(-c3ccccc3)c(OCc3cccc(Br)c3)c(O)c12", "cells": "Huh 5-2", "strain": "genotype 1", "value": "18 µM"}
{"compound": "COc1cc(N2CCOCC2)ccc1Nc1ncnc2ccc(-c3nccs3)cc12", "cells": "Huh", "strain": "1b", "value": "<1 µM"}
{"compound": "O=C(c1ccccc1)N1CCC2(CCCN(c3ncc(-c4ccccc4)c(-c4ccc(Cl)cc4)n3)C2)CC1", "cells": "Huh7", "strain": "H77", "setting": "genotype 1a", "value": "0.803 µM"}
{"compound": "C[C@@H]1[C@H](n2ccc(N)nc2=O)O[C@@](COC(C)(C)C)(N=[N+]=[N-])[C@H]1OC(C)(C)C", "cells": "Huh7-Rep", "strain": "genotype 1", "value": "3.6 µM"}
{"compound": "O=C1N/C(=N\\S(=O)(=O)c2ccc(Cl)cc2)S/C1=C\\c1ccccc1Cl", "cells": "Huh 5-2", "strain": "1b", "value": "48.9 µM"}
{"compound": "COc1c(-c2ccc3cc(NS(C)(=O)=O)ccc3c2)cc(-n2ccc(=O)[nH]c2=O)cc1C(C)(C)C", "mutations": "Y448H", "cells": "Huh7", "strain": "genotype 1b Con1", "value": "0.027 µM"}
{"compound": "O=C1N/C(=N\\S(=O)(=O)c2ccc(F)cc2)S/C1=C\\c1ccccc1Cl", "cells": "Huh 5-2", "strain": "1b", "value": ">115 µM"}
{"compound": "[N-]=[N+]=N[C@]1(CO)O[C@@H](n2ccc(N)nc2=O)[C@@H](O)[C@@H]1O", "cells": "Huh7", "value": "0.22 µM"}

Repeating the final 3 entries:

compound | mutations | cells | strain | setting | value
COc1c(-c2ccc3cc(NS(C)(=O)=O)ccc3c2)cc(-n2ccc(=O)[nH]c2=O)cc1C(C)(C)C | Y448H | Huh7 | genotype 1b Con1 | - | 0.027 µM
O=C1N/C(=N\S(=O)(=O)c2ccc(F)cc2)S/C1=C\c1ccccc1Cl | - | Huh 5-2 | 1b | - | >115 µM
[N-]=[N+]=N[C@]1(CO)O[C@@H](n2ccc(N)nc2=O)[C@@H](O)[C@@H]1O | - | Huh7 | - | - | 0.22 µM